Patent publication US20240310360A1, “METHOD OF […] RESPONSE OF CELL GROUP TO TEST SUBSTANCE” (CANON KABUSHIKI KAISHA, priority 2023, published 2024)

Tests used:
PBMCs [1] = experiment: Autofluorescence imaging FAD/NADH ratio of PBMCs after antigen stimulation (Example 1); format: cell-based; conditions: 1 hour after stimulation, peptide solution 10 nM
PBMCs [2] = conditions: PBMCs used in Example 1; confirmed in advance by the manufacturer; cited from earlier work

| Substance | FAD/NADH ratio of cell group added with test substance compared with cell group without addition (PBMCs [1]) | reactivity of the PBMCs to the peptide (ELISpot test) (PBMCs [2]) |
| --- | --- | --- |
| Flu Matrix 1 (58-66) Peptide: peptide solution manufactured by Cellular Technology Limited; peptide that binds directly to an MHC | lower in FAD/NADH ratio | react strongly |
| Influenza A PA (46-54) Peptide: peptide solution manufactured by Cellular Technology Limited; peptide that binds directly to an MHC (FMYSDFHFI; UniProt P03433 46-54, looked up, fragment) | – | hardly react |
